Measured values from several laboratories, pooled; numbers as filed in NIAID ChemDB.

Shared fields: growth or infection tests; organism: HIV-1; measure: inhibition

Inhibition is in % at the dose shown (toxicity tests: loss of growth or viability). a–b is a range or a potency band. Blank or dashed fields: not listed here. Neighbouring rows are from separate reports.

| smiles | cells | strain or isolate | read by | conditions | tested at | result |
|---|---|---|---|---|---|---|
| O=C(NCCc1ccccc1)Nc1ncco1 | MT-4 | - | cytopathic effect / XTT | - | 10 µg/mL | 0% |
| C[C@H]1CN(C(=O)c2ccccc2)CCN1C(=O)C(=O)c1c[nH]c2ccc(F)cc12 | HeLa + HELA CD4+/CCR5 | - | luciferase | - | 10 µM | 95% |
| Cc1cn([C@H]2C[C@H](N=[N+]=[N-])[C@@H](COP(=O)(O)OCCO[C@H]3O[C@H](CO)[C@@H](O)[C@H](O)[C@@H]3O)O2)c(=O)[nH]c1=O | CEM | LAV-Bru | RT activity | 26 d | 0.2 µM | 0% |
| Cc1ccc(F)c2c(C(=O)C(=O)N3CCN(C(=O)c4ccccc4)C[C@H]3C)c[nH]c12 | HeLa + HELA CD4+/CCR5 | - | luciferase | - | 10 µM | >98% |
| C[C@H]1[C@H](O)[C@@H](C)/C=C/C=C/C=C/C=C/C=C/C=C/C=C/[C@H](O[C@@H]2O[C@H](C)[C@@H](O)[C@H](N)[C@@H]2O)C[C@@H]2O[C@](O)(C[C@@H](O)C[C@@H](O)CC[C@H](O)[C@@H](O)C[C@@H](O)CC(=O)O[C@H]1C)C[C@H](O)[C@H]2C(=O)O | PBMC | 92BR014 CLADE B X4/R5 (SI) | p24 / RT activity | - | 9.2 µM | 90% |
| CC(=O)N1C(=O)[C@@H](Cc2ccccc2)NC1=S | MT-4 | - | cytopathic effect / XTT | - | 0.1 µg/mL | 6% |
| Cc1ccc(-c2ccc3c(c2)C=C(C(=O)Nc2ccc(C[N+](C)(C)C4CCOCC4)cc2)CCC3)cc1 | PBMC | TB10 CLADE C | p24 | - | 1 µM | 100% |
| O=C(NCCc1ccccc1)Nc1nc2ccc(F)cc2s1 | MT-4 | - | RT activity | - | 100 µg/mL | 95% |
| O=C(C(=O)N1CCN(C(=O)c2ccc(F)c(Cl)c2)CC1)c1c[nH]c2ccccc12 | MT-2 | BRU | RT activity | - | 10 µM | 46% |
| CC1(C)[C@@H](O[C@H]2O[C@H](C(=O)O)[C@@H](O)[C@H](O)[C@H]2O[C@@H]2O[C@H](C(=O)O)[C@@H](O)[C@H](O)[C@H]2O)CC[C@]2(C)[C@H]3C(=O)C=C4[C@@H]5C[C@@](C)(C(=O)O)CC[C@]5(C)CC[C@@]4(C)[C@]3(C)CC[C@@H]12 | MOLT-4 | IIIB | cytopathic effect | 3 d | 1200 µM | 15.7% |
| O=C(C(=O)N1CCN(C(=O)c2ccccc2)CC1)c1c[nH]c2c(Br)cccc12 | HeLa + HELA CD4+/CCR5 | - | luciferase | - | 10 µM | >98% |
| CCCCCCCCCCCCCCCCOP(=O)(OCCO[C@@H]1O[C@H](CO)[C@@H](O)[C@H](O)[C@@H]1O)OC[C@H]1O[C@@H](n2cc(C)c(=O)[nH]c2=O)C[C@@H]1N=[N+]=[N-] | U-937 | LAV-Bru | RT activity | 11 d | 1 µM | 0% |
| CN1C(=O)[C@@H](Cc2ccccc2)NC1=S | MT-4 | - | cytopathic effect / XTT | - | 10 µg/mL | 24–34% |
| O=C(C(=O)N1CCN(C(=O)c2ccccc2)CC1)c1c[nH]c2cc(Cl)c(F)cc12 | HeLa + HELA CD4+/CCR5 | - | luciferase | - | 10 µM | 60% |
| O=C(NCCc1ccccc1)Nc1nc2c(Cl)cccc2s1 | MT-4 | - | RT activity | - | 100 µg/mL | 97% |
| COC(=O)c1cccc2c(C(=O)C(=O)N3CCN(C(=O)c4ccccc4)C[C@@H]3C)c[nH]c12 | HeLa + HELA CD4+/CCR5 | - | luciferase | - | 10 µM | >98% |
| COc1ccc(CCNC(=S)Nc2nccs2)cc1OC | MT-4 | - | cytopathic effect / XTT | - | 1 µg/mL | 4–44% |
| CCCCCCCCCCCCCCCCOP(=O)(OC[C@H]1OC(O)[C@@H](O)[C@@H](O)[C@@H]1O)OC[C@H]1O[C@@H](n2cc(C)c(=O)[nH]c2=O)C[C@@H]1N=[N+]=[N-] | PBL | LAV-Bru | RT activity | 7 d | 1 µM | 47% |

2 of the rows above, restated:

| smiles | cells | strain or isolate | read by | conditions | tested at | result |
|---|---|---|---|---|---|---|
| Cc1ccc(F)c2c(C(=O)C(=O)N3CCN(C(=O)c4ccccc4)C[C@H]3C)c[nH]c12 | HeLa + HELA CD4+/CCR5 | - | luciferase | - | 10 µM | >98% |
| O=C(NCCc1ccccc1)Nc1nc2c(Cl)cccc2s1 | MT-4 | - | RT activity | - | 100 µg/mL | 97% |